Earlier results, collected in patent publication US20040170653A1, “Tumour peptide antigen produced from human mdm2 proto-oncogene” (priority 2001, published 2004).

System: A2K^b- and CD8×A2K^b transgenic mice
Conditions: positive control (Theobald et al., 1995); cited from earlier work

## Flu M1 58-66: peptide 58-66 of the A/PR/8/34 influenza virus matrix protein M1, positive control [reference compound]
  induction of A2.1-restricted CTL: already known
